Share of PSTVd loop 27 variants by leaf site

From the data files of Wu et al. 2024, doi:10.1371/journal.ppat.1012142.

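A pool of all variants was put on leaves of three Nicotiana benthamiana plants. Progeny were sequenced from the inoculated region (day 5), the margin of the inoculated leaf (day 10) and systemic leaves (day 12).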

The pool varies loop 27 of the PSTVd intermediate strain in the pattern UNNNNA; wild type is UUUUCA (5' to 3', with the closing base pair).

Numbers give reads per thousand; 0 = not seen among the reads, higher = more abundant. Each value is the mean of three plants. "Pool" is the share in the plasmid pool used as inoculum, on the same scale. The inoculated region was read from the minus strand, the other sites from the plus strand. With 30,013-65,426 reads a sample, very low values are single reads. Sequences that differ at fixed positions probably stem from PCR or sequencing errors, and defective variants can be carried along by functional ones. For reference, wild type rose from 39.4 per thousand in the pool to 155, 124, 130 (inoculated region), 823, 907, 920 (leaf margin) and 805, 787, 933 (systemic leaves).

| sequence | pool | inoculated region | leaf margin | systemic leaves |
|---|---|---|---|---|
| CUAUAA | 0.0136 | 0 | 0 | 0 |
| UCAAAC | 0.0136 | 0.00630 | 0 | 0 |
| UAAGCA | 3.02 | 1.45 | 0.202 | 0.0515 |
| UCGGUA | 2.74 | 1.71 | 0.309 | 0.0206 |
| UUGUUA | 8.68 | 22.0 | 4.45 | 54.1 |
| GAAAAA | 0.0136 | 0 | 0.0101 | 0 |
| UUUUCG | 0.0407 | 0.0710 | 0.980 | 2.34 |
| UCAGUA | 5.94 | 1.52 | 0.125 | 0.193 |
| UCCUGA | 1.45 | 1.25 | 0.118 | 0.0406 |
| CGAAUA | 0.0136 | 0 | 0 | 0 |
| UGCUAA | 3.14 | 2.03 | 0.0399 | 0.0170 |
| UGUCCA | 1.05 | 0.577 | 0.0101 | 0 |
| UCAUGA | 4.39 | 1.09 | 0.199 | 0.0881 |
| UGUCAA | 3.04 | 4.55 | 0.234 | 0.126 |
| UGACAA | 3.15 | 2.08 | 0.224 | 0.0153 |
| UGAAGA | 2.99 | 7.50 | 0.764 | 0.0792 |
| UAAAAA | 9.75 | 8.09 | 1.41 | 0.0977 |
| CCGCGA | 0.0136 | 0 | 0 | 0 |
| UCACCA | 2.17 | 1.03 | 0.142 | 0.0117 |
| UGCGCA | 5.19 | 1.62 | 0.0302 | 0.0386 |
| UGAUCA | 1.94 | 1.28 | 0.271 | 0.0624 |
| UAUUAA | 3.82 | 5.00 | 0.602 | 0.137 |
| UUGAGA | 5.43 | 4.32 | 0.380 | 0.0879 |
| UGCCAA | 4.40 | 2.92 | 0.141 | 0.0275 |
| UAGUAA | 1.89 | 2.40 | 0.327 | 0.0719 |
| UUUUUA | 13.0 | 45.9 | 5.84 | 5.45 |
| GUGCAU | 0.0136 | 0 | 0 | 0 |
| UUGCAA | 4.21 | 1.71 | 0.181 | 0.0320 |
| UAGGGA | 6.23 | 1.44 | 0.197 | 0.0643 |
| UGGGUA | 6.97 | 2.63 | 0.159 | 0.0546 |
| UGUGUA | 8.73 | 10.1 | 0.626 | 0.197 |
| AUCGGA | 0.0136 | 0.0181 | 0 | 0 |
| UCUUAC | 0.231 | 0.0403 | 0 | 0.00509 |
| UCUCAA | 3.52 | 1.93 | 0.0313 | 0.0469 |
| AGAUAA | 0.0136 | 0 | 0 | 0 |
| UCUCGA | 0.475 | 0.364 | 0.0101 | 0.00656 |
| UGGCAA | 3.23 | 1.48 | 0.265 | 0.0248 |
| UACAGA | 2.81 | 2.94 | 0.345 | 0.123 |
| UCUAGA | 1.85 | 0.688 | 0.0313 | 0.0155 |
| UUAUCA | 2.49 | 5.70 | 1.63 | 0.835 |
| UUUAGA | 5.23 | 4.68 | 0.507 | 3.69 |
| UGUAAA | 6.06 | 7.79 | 0.690 | 0.144 |
| UAGAAA | 2.61 | 4.61 | 0.663 | 0.144 |
| UUUGUA | 13.7 | 23.3 | 2.76 | 0.766 |
| UGACUA | 4.74 | 2.12 | 0.102 | 0.0432 |
| UAAGGA | 1.28 | 0.335 | 0.0101 | 0.0102 |
| UCGAAA | 4.32 | 2.78 | 0.450 | 0.0978 |
| UGCGGA | 5.55 | 2.52 | 0.111 | 0.0641 |
| UAAGUA | 5.08 | 2.01 | 0.265 | 0.0962 |
| UCUAAA | 5.91 | 2.68 | 0.319 | 0.0471 |
| UGCCGA | 1.02 | 1.17 | 0.0302 | 0 |
| UGUAUA | 5.12 | 7.69 | 1.08 | 0.148 |
| UAAUGA | 6.32 | 2.31 | 0.507 | 0.0680 |
| UUCUUA | 6.32 | 4.87 | 0.341 | 0.138 |
| UUUGCU | 0.0272 | 0 | 0 | 0 |
| UGAUGA | 5.41 | 3.16 | 0.344 | 0.0972 |
| UAGACA | 1.02 | 1.02 | 0.0726 | 0.0236 |
| GAGAGA | 0.0136 | 0 | 0 | 0 |
| UCGGAA | 4.29 | 2.78 | 0.414 | 0.0738 |
| UGCUUA | 2.89 | 2.15 | 0.0716 | 0.0400 |
| UAAAUA | 2.00 | 0.477 | 0.0829 | 0.0428 |
| UAGAGA | 2.77 | 1.58 | 0.226 | 0.0389 |
| GUCGGA | 0.0136 | 0 | 0 | 0 |
| CCCACA | 0.0136 | 0 | 0 | 0 |
| UUAAUA | 3.84 | 3.59 | 0.539 | 0.0711 |
| UUCAGA | 0.774 | 0.582 | 0.145 | 0.0117 |

Excerpt, the final 6 entries:

sequence	pool	inoculated region	leaf margin	systemic leaves
UAAAUA	2.00	0.477	0.0829	0.0428
UAGAGA	2.77	1.58	0.226	0.0389
GUCGGA	0.0136	0	0	0
CCCACA	0.0136	0	0	0
UUAAUA	3.84	3.59	0.539	0.0711
UUCAGA	0.774	0.582	0.145	0.0117